Target: C2I (Clostridium botulinum, UniProt O69275)
Assay: in vitro ADP-ribosylation of actin in HeLa lysate, Western blot
Details: 15-120 µM DSF; 1 nM C2I; biotinylated NAD+; 1 mM DTT, pH 7.5, 37°C, 30 min; HeLa lysate as actin source

## CCN(CC)C(=S)SSC(=S)N(CC)CC [disulfiram]
  in vitro ADP-ribosylation of actin in HeLa lysate, Western blot: indicating a concentration-dependent inhibition of C2I activity by DSF
